The text below walks through data of PMC3156716.

In the data set the target is T1, His6-PhoP (UniProt Q9I4F9).
T1 sequence (looked up, limits assumed): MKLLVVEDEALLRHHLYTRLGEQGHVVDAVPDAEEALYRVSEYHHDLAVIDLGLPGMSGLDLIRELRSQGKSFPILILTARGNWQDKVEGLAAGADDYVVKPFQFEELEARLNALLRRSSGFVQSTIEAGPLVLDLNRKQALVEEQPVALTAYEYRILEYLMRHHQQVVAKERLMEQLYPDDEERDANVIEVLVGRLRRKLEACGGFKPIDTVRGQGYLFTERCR
As to the kind of experiment: EMSA. The settings on record: DIG Gel Shift Kit 2nd Generation (Roche) per manufacturer; 6% native polyacrylamide gel; pH and temperature not stated; recombinant protein; protein details: His6 (pET28a); label: digoxigenin; probe letters rebuilt from the primers and the genome.

The exact form of at least one protein or probe is not confirmed. Protein sequences can lack the tags named with them.

For the sequence “GAGGATCCGGGAACGCTGGAAACGCCGGCGTCGTCCGCGACCGCCGGCGACATCGGACCGAGCAGAAGCAGCAGGAAGCTGACGAGTAGTCCTATGGCGATCCGAAGCCGTACCACGGCGAAGTCCCTTCGAAGGTGAATGGCCGGATTATAGCCAAGTGGCCGTGGCAACGGCATAGGCCGCGGAAGCGCCGTGCGGCGCCCGCGGCTTCGGGCCCGGTCAGGACTCGCCGCGCTCGCGGGCGATGGCACGGTAGCCGATGTCCTTGCGGTAGAAGCAGCCGTTCCAGCGGATCTTCTCGGCCAGGCGATAGGCCTGTTGCTGGGCGGCGGACACGCTCTCGCCGATGGCGGTGGCACAGAGCACGCGGCCGCCTCGAGTC (double strand) [retS promoter, full length 366 bp]”, the binding result is on record as “binds”.
